A mixed list of measured activities; the numbers were collected in NIAID ChemDB.

All rows: tests in culture; agent: HIV-1; method: cytopathic effect / XTT; measure: EC50

ECn is the concentration giving n% inhibition of infection, replication or growth. Conditions beyond the fields shown may differ between rows.

{"smiles": "CC(C)(C)NC(=O)[C@@H]1C[C@@H]2CCCC[C@@H]2CN1C[C@@H](O)[C@H](Cc1ccccc1)NC(=O)[C@H](CC(N)=O)NC(=O)c1ccc2ccccc2n1", "changes": "PR-L10F I84V", "cells": "MT-4", "strain": "IIIB", "result": "0.04 µM"}
{"smiles": "CCc1c(Sc2ccccn2)n(COCc2ccccc2)c(=O)[nH]c1=O", "changes": "RT-P236L", "cells": "CEM + CEM-SS", "strain": "IIIB HEPT-resistant (RT P236L)", "result": "1 µM"}
{"smiles": "Cc1ccnc2c1NC(=O)c1cccnc1N2C1CC1", "conditions": "clinical isolate", "cells": "PBMC", "strain": "CLADE B", "result": "0.07 µM"}
{"smiles": "Cc1ccnc2c1NC(=O)c1cccnc1N2C1CC1", "changes": "RT-A98G", "cells": "CEM + CEM-SS", "strain": "NL4-3", "result": "0.2 µM"}
{"smiles": "Cc1cn([C@@H]2O[C@H](CO[Si](C)(C)C(C)(C)C)C3(OS(=O)(=O)C=C3N)[C@H]2O[Si](C)(C)C(C)(C)C)c(=O)n(C)c1=O", "cells": "CEM", "strain": "IIIB", "result": "0.03 µM"}
{"smiles": "Cc1cn([C@H]2C[C@H](N=[N+]=[N-])[C@@H](CO)O2)c(=O)[nH]c1=O", "changes": "RT-D67N K70R Y181C T215Y K219Q", "cells": "CEM + CEM-SS", "strain": "4XAZT/Y181C (RT D67N K70R Y181C T215Y K219Q)", "result": "0.1 µM"}
{"smiles": "C/C=C/CSc1cc(NC(=S)c2ccsc2C)ccc1Cl", "changes": "RT-L100I", "cells": "CEM + CEM-SS", "strain": "Oxathiin carboxanilide-resistant RT L100I", "result": ">2 µM"}
{"smiles": "Fc1cccc(F)c1[C@H]1SCc2nc3ccccc3n21", "changes": "RT-D138K", "cells": "CEM", "strain": "IIIB", "result": "0.87 µM"}
{"smiles": "Cc1occc1C(=S)Nc1ccc(Cl)c(/C=N/OC(C)(C)C)c1", "cells": "CEMx174 + CEM", "strain": "IIIB", "result": "0.6 µM"}
{"smiles": "CC(C)=CCN1Cc2cccc3[nH]c(=S)n(c23)C[C@@H]1C", "cells": "CEM + CEM-SS", "strain": "IIIB", "result": "0.07 µM"}
{"smiles": "Fc1cccc(F)c1[C@@H]1SCc2nc3ccccc3n21", "changes": "RT-L100I", "cells": "CEM", "strain": "IIIB", "result": "20.8 µM"}
{"smiles": "Cc1cn([C@H]2C[C@H](N=[N+]=[N-])[C@@H](CO)O2)c(=O)[nH]c1=O", "cells": "CEM + CEM-SS", "strain": "IIIB", "result": "0.03 µM"}
{"smiles": "Cc1c(Sc2ccccc2)n(COCCO)c(=O)[nH]c1=O", "changes": "RT-V90I T139I P225S", "cells": "CEM + CEM-SS", "strain": "IIIB", "result": "69.5 µM"}
{"smiles": "Fc1cccc(F)c1C1SCc2nc3ccccc3n21", "cells": "CEM + CEM-SS", "strain": "IIIB", "result": "3.4 µM"}
{"smiles": "Cc1ccnc2c1NC(=O)c1cccnc1N2C1CC1", "changes": "RT-V108I", "cells": "CEM + CEM-SS", "strain": "IIIB", "result": "0.33 µM"}
{"smiles": "Cc1cn([C@H]2C[C@H](N=[N+]=[N-])[C@@H](CO)O2)c(=O)[nH]c1=O", "cells": "CEM + CEM-SS", "strain": "G", "result": "0.008 µM"}
{"smiles": "Cc1cn([C@H]2C[C@H](N=[N+]=[N-])[C@@H](CO)O2)c(=O)[nH]c1=O", "changes": "RT-V108I", "cells": "CEM + CEM-SS", "strain": "IIIB", "result": "0.04 µM"}
{"smiles": "Fc1cccc(F)c1C1SCc2nc3ccccc3n21", "cells": "MT-2", "strain": "IIIB", "result": "1.32 µM"}

Repeating the final 2 entries:

Cc1cn([C@H]2C[C@H](N=[N+]=[N-])[C@@H](CO)O2)c(=O)[nH]c1=O ; changes: RT-V108I ; cells: CEM + CEM-SS ; strain: IIIB ; result: 0.04 µM
Fc1cccc(F)c1C1SCc2nc3ccccc3n21 ; cells: MT-2 ; strain: IIIB ; result: 1.32 µM